Pooled drug test results. Numbers come from NIAID ChemDB, via PubChem.

Shared fields: toxicity to cultured cells; cell line: MT-4; measure: CC50

Lines come from different laboratories, so protocols vary.

compound | method | value
CCCN(C)c1nc([C@H](C)c2c(F)cccc2F)c(C)c(=O)[nH]1 | MTT | 75 µM
Cc1cn([C@H]2CO[C@@H](CP(=O)(O)O)O2)c(=O)[nH]c1=O |  | >332 µM
Clc1cccc(/C=N/c2nccs2)c1 | MTT | >100 µM
Nc1ccn([C@H]2CC[C@@H](CO)O2)c(=O)n1 |  | 40 µM
CC(C)CN(C[C@@H](O)[C@H](Cc1ccccc1)NC(=O)O[C@H]1CCOC1)S(=O)(=O)c1ccc(N)cc1 | WST | >100 µM
c1cnc2c(c1)cc(CN1CCCNCCNCCCNCC1)c1cccnc12 |  | 15.3 µM
Nc1nc(N)c2ncn(C[C@H](CF)OCP(=O)(O)O)c2n1 |  | >100 µg/mL
CC(C)(C)[Si](C)(C)OCC1OC(n2nncc2C(=O)NC2CCCC2)C(O[Si](C)(C)C(C)(C)C)C12OS(=O)(=O)C=C2N |  | >250 µM
O=c1[nH]c(=S)[nH]c2nc(-c3ccc(F)cc3)c(-c3ccc(F)cc3)nc12 | MTT | 56.9 µg/mL
O=C(O)c1oc2cc(O)cc(O)c2c(=O)c1Oc1ccc(OCc2ccccc2)cc1OCc1ccccc1 |  | >25 µg/mL
CCc1cn([C@@H]2O[C@H](CO[Si](C)(C)C(C)(C)C)C3(OS(=O)(=O)C=C3N)[C@H]2O[Si](C)(C)C(C)(C)C)c(=O)[nH]c1=O |  | 5.5 µM
Nc1ccn([C@H]2CO[C@@H](CP(=O)(O)O)O2)c(=O)n1 |  | >332 µM
COc1cc2c(cc1OC)[C@H]1[C@H]3C(=CC[C@H]1OC2=O)CCN3C | MTT | 12.8 µg/mL
CC(C)(C)[Si](C)(C)OC[C@H]1O[C@@H](n2cnc3[nH]c(=O)[nH]c(=O)c32)[C@H](O[Si](C)(C)C(C)(C)C)C12OS(=O)(=O)C=C2N |  | 7.7 µg/mL
COc1ccc(CCCSc2nc(C(C)c3c(Cl)cccc3Cl)c(C)c(=O)[nH]2)cc1 |  | >10.8 µM
CC(C)=CCc1cc([C@@H]2CC(=O)c3c(O)cc(O)cc3O2)c(CC=C(C)C)c(O)c1O |  | 29 µg/mL
CCOCn1c(Sc2ccccc2)c(CC)c(=O)[nH]c1=O |  | 146 µM
Cc1ccnc2c1NC(=O)c1cccnc1N2C1CC1 | MTT | 7.5 µM
Cc1cc(-c2ccc(C#N)cc2)cc(C)c1Oc1ccnc(S(=O)(=O)CC(=O)Nc2ccc(C#N)cc2)n1 | MTT | 24.44 µg/mL
CC(C)(C)[Si](C)(C)OCC1OC(n2nncc2C(=O)NC2CC2)C(O[Si](C)(C)C(C)(C)C)C12OS(=O)(=O)C=C2N |  | 168 µM
NOCc1cc(Cl)ccc1Cl |  | 47 µg/mL
CCc1cn([C@H]2C[C@H](F)[C@@H](CO)O2)c(=O)[nH]c1=O |  | >625 µM
CCCCNP(=O)(OC[C@@H]1O[C@H](n2cc(C)c(=O)[nH]c2=O)C[C@H]1N=[N+]=[N-])OC[C@H]1O[C@@H](n2cc(C)c(=O)[nH]c2=O)C[C@@H]1N=[N+]=[N-] |  | >100 µM
CCN[C@H]1CO[C@@H]2OC[C@H](OC(=O)N[C@@H](Cc3cc(F)cc(F)c3)[C@H](O)CN(CC(C)C)S(=O)(=O)c3ccc4nc(NC5CC5)sc4c3)[C@@H]21 | WST | 42.8 µM
NOCc1ccccc1 |  | 82.3 µg/mL
C1CNCCNCCNCCN1 |  | 19.5 µM
CC(C)(C)NC(=O)[C@@H]1CC2CCCCC2CN1C[C@@H](OC(=O)CCCCNC(=O)O[C@H]1[C@@H](C2COC(C)(C)O2)OC2OC(C)(C)O[C@H]21)[C@H](Cc1ccccc1)NC(=O)[C@H](CC(N)=O)NC(=O)c1ccc2ccccc2n1.O=C(O)C(F)(F)F.O=C(O)C(F)(F)F.O=C(O)C(F)(F)F.O=C(O)C(F)(F)F |  | >10 µM
CCc1cn([C@H]2C[C@H](N=[N+]=[N-])[C@@H](CO)O2)c(=O)[nH]c1=O |  | 418 µM
CCn1cnc2ncn([C@@H]3O[C@H](CO[Si](C)(C)C(C)(C)C)C4(OS(=O)(=O)C=C4N)[C@H]3O[Si](C)(C)C(C)(C)C)c2c1=O |  | >100 µg/mL
Cc1cc(-c2ccc(C#N)cc2)cc(C)c1Oc1ccnc(S(=O)(=O)CC(=O)NCc2ccc(Br)cc2)n1 | MTT | 3.57 µM
C[C@H](Cn1cnc2c(N)nc(N)nc21)OCP(=O)(O)O |  | >100 µg/mL
CCCCNC(=S)N/N=C(\C)c1nc2ccc(Cl)cc2[nH]1 | MTT | 1.06 µg/mL
COc1ccc(C#CCSc2nc(C(C)c3c(Cl)cccc3Cl)c(C)c(=O)[nH]2)cc1 |  | >54.47 µM
CC(C)(C)NC(=O)[C@@H]1C[C@@H]2CCCC[C@@H]2CN1C[C@@H](OC(=O)CCCCO[C@@H]1[C@@H](O)[C@@H](O)O[C@H](CO)[C@H]1O)[C@H](Cc1ccccc1)NC(=O)[C@H](CC(N)=O)NC(=O)c1ccc2ccccc2n1 |  | >10 µM
CCOc1ccc2nc(/N=C/c3ccc(O)cc3)sc2c1 | MTT | ≥100 µM
Cc1cn([C@H]2CC[C@@H](CO)O2)c(=O)[nH]c1=O |  | >625 µM
Nc1ncnc2c1ncn2C[C@@H]1C[C@@]1(CO)c1ccccc1 |  | <2.29 µg/mL
CC(C)(C)NC(=O)[C@@H]1CC2CCCCC2CN1C[C@@H](OC(=O)CC(=O)O[C@H]1[C@@H](C2COC(C)(C)O2)OC2OC(C)(C)O[C@H]21)[C@H](Cc1ccccc1)NC(=O)[C@H](CC(N)=O)NC(=O)c1ccc2ccccc2n1 |  | >10 µM
COc1c(O)ccc(/C=C2N=C(/C=C/c3cc(Br)c(O)c(Br)c3)N(C)C\2=O)c1OC | visual reading | 4 µM
CC(C)=CCc1c(O)ccc(-c2coc3cc(O)cc(O)c3c2=O)c1O |  | 21 µg/mL
Nc1ccn([C@H]2C[C@H](F)[C@@H](CO)O2)c(=O)n1 |  | 26 µM
COc1ccc(/C=C/CSc2nc(C(C)c3c(Cl)cccc3Cl)c(C)c(=O)[nH]2)cc1 |  | >10.84 µM
Nc1ncnc2c1ncn2[C@@H]1C=C(CO)[C@@H](O)[C@H]1O | trypan blue | 0.016 µg/mL
c1cc(CN2CCCNCCNCCCNCC2)ccc1CN1CCCNCCNCCCNCC1 |  | >125 µg/mL
CC(C)(C)NC(=O)[C@@H]1CC2CCCCC2CN1C[C@@H](OC(=O)CCC(=O)O[C@H]1[C@@H](C2COC(C)(C)O2)OC2OC(C)(C)O[C@H]21)[C@H](Cc1ccccc1)NC(=O)[C@H](CC(N)=O)NC(=O)c1ccc2ccccc2n1 |  | 8 µM
Cc1c(Sc2ccccc2)n(COCCO)c(=O)[nH]c1=O |  | 74 µM
CO[C@@H]1C=C[C@@]23c4cc5c(cc4[C@H](O)N(C[C@@H]2O)[C@H]3C1)OCO5 | MTT | 1 µg/mL
O=c1[nH]c(=S)[nH]c2nccnc12 | MTT | 60.4 µg/mL
CO[C@H]1O[C@@H](n2ccc(=O)[nH]c2=O)C[C@@H]1N=[N+]=[N-] |  | 244 µM
Cc1cn([C@H]2C[C@H](F)[C@@H](CO)O2)c(=O)[nH]c1=O |  | 1.1 µM
O=c1[nH]cnc2c1ncn2[C@H]1CC[C@@H](CO)O1 | MTT | >20 µg/mL
CC(C)(C)NC(=O)[C@@H]1CN(Cc2cccnc2)CCN1C[C@@H](O)C[C@@H](Cc1ccccc1)C(=O)N[C@H]1c2ccccc2C[C@H]1OC(=O)CCCCO[C@@H]1[C@@H](O)[C@@H](O)O[C@H](CO)[C@H]1O |  | >10 µM
Cc1ccc2snc(N=Cc3ccccc3O)c2c1 | MTT | 7 µM
O=c1ccn(C[C@@H]2C[C@@]2(CO)c2ccccc2)c(=O)[nH]1 |  | >100 µg/mL
C1CNCCNCCCNCCNC1.O=S(=O)([O-])[O-].[O]=[V+2] | MTT | >340 µM
NOCc1cccc(Cl)c1Cl |  | 44.8 µg/mL
CCCCc1ccc(CSc2nc(Cc3ccc(C#N)cc3)c(C)c(=O)[nH]2)cc1 |  | >79.87 µM
CC(C)(C)[Si](C)(C)OC[C@H]1O[C@@H](n2cnc3c(N)ncnc32)[C@H](O[Si](C)(C)C(C)(C)C)C12OS(=O)(=O)C=C2N |  | 8.3 µg/mL
Cn1c(Cn2ccc(C(F)(F)F)c(Oc3ccc(-c4ccc(C#N)cc4)c(F)c3)c2=O)n[nH]c1=O | MTT | 37.8 µM
O=[N+]([O-])c1ccc(/C=N/c2nccs2)cc1 | MTT | 63 µM
CC(C)(C)[Si](C)(C)OC[C@H]1O[C@@H](n2cnc3c(=O)[nH]cnc32)[C@H](O[Si](C)(C)C(C)(C)C)C12OS(=O)(=O)C=C2N |  | 7.8 µg/mL
CC(C)(C)[Si](C)(C)OCC1OC(n2nncc2C(=O)NC2CCC2)C(O[Si](C)(C)C(C)(C)C)C12OS(=O)(=O)C=C2N |  | >250 µM
Cc1cc(-c2ccc(C#N)cc2)cc(C)c1Oc1ccnc(S(=O)(=O)CC(=O)NC(C)c2ccc(Cl)cc2)n1 | MTT | 3.82 µM
Nc1ccn([C@H]2CO[C@H](CP(=O)(O)O)O2)c(=O)n1 |  | >332 µM
Cc1cc(C#N)cc(C)c1Oc1nc(Nc2ccc(C#N)cc2)nc(N)c1Br | MTT | >4.61 µM
CC(C)(C)NC(=O)[C@@H]1CC2CCCCC2CN1C[C@@H](OC(=O)CCC(=O)O[C@H]1[C@@H](C2COC(C)(C)O2)OC2OC(C)(C)O[C@H]21)[C@H](Cc1ccccc1)NC(=O)[C@H](CC(N)=O)NC(=O)c1ccc2ccccc2n1.O=C(O)C(F)(F)F.O=C(O)C(F)(F)F |  | >10 µM
COCOc1ccc(C2CC(=O)c3c(O)cc(OCOC)cc3O2)c(OCOC)c1 |  | >100 µg/mL
CO[C@@H]1C=C[C@@]23c4cc5c(cc4CN(C[C@@H]2O)[C@H]3C1)OCO5 | MTT | 1 µg/mL
Cc1cc(C)cc(-c2cc(C)c(Nc3ccnc(Nc4ccc(C#N)cc4)n3)c(C)c2)c1 | MTT | 2.08 µM
CC(=O)Oc1ccc(CSc2nc(Cc3c(F)cccc3F)c(C)c(=O)[nH]2)cc1 |  | >60.1 µM
CCN(C)C(=O)c1cnnn1C1OC(CO[Si](C)(C)C(C)(C)C)C2(OS(=O)(=O)C=C2N)C1O[Si](C)(C)C(C)(C)C |  | 88 µM
O=c1[nH]c(=S)[nH]c2nc(-c3ccccc3)c(-c3ccccc3)nc12 | MTT | 1.77 µg/mL
COc1cc(C=Nc2nsc3ccccc23)ccc1O | MTT | 6 µM
Cc1cc(C)c(Oc2cc(Nc3ccc(C#N)cc3)ncc2C(=O)NCc2cn(CC(=O)N3CCCC3)nn2)c(C)c1 | MTT | 58.09 µM
O=c1ccn(C[C@H]2C[C@@]2(CO)c2ccccc2)c(=O)[nH]1 |  | >100 µg/mL
Cc1cc(/C=C/C#N)cc(C)c1Oc1ccnc(S(=O)(=O)CC(=O)Nc2ccc(F)cc2)n1 | MTT | 19.5 µM
N#Cc1cc(Cl)cc(Oc2cc(OCc3[nH]nc4ccncc34)ccc2Cl)c1 |  | >8.3 µM

For reference, 10 entries again:

compound | method | value
CC(C)(C)[Si](C)(C)OCC1OC(n2nncc2C(=O)NC2CCC2)C(O[Si](C)(C)C(C)(C)C)C12OS(=O)(=O)C=C2N |  | >250 µM
O=c1[nH]c(=S)[nH]c2nc(-c3ccccc3)c(-c3ccccc3)nc12 | MTT | 1.77 µg/mL
C1CNCCNCCNCCN1 |  | 19.5 µM
CC(C)(C)[Si](C)(C)OC[C@H]1O[C@@H](n2cnc3c(N)ncnc32)[C@H](O[Si](C)(C)C(C)(C)C)C12OS(=O)(=O)C=C2N |  | 8.3 µg/mL
O=[N+]([O-])c1ccc(/C=N/c2nccs2)cc1 | MTT | 63 µM
COc1ccc(C#CCSc2nc(C(C)c3c(Cl)cccc3Cl)c(C)c(=O)[nH]2)cc1 |  | >54.47 µM
CC(C)(C)[Si](C)(C)OCC1OC(n2nncc2C(=O)NC2CC2)C(O[Si](C)(C)C(C)(C)C)C12OS(=O)(=O)C=C2N |  | 168 µM
Cc1c(Sc2ccccc2)n(COCCO)c(=O)[nH]c1=O |  | 74 µM
Nc1ncnc2c1ncn2C[C@@H]1C[C@@]1(CO)c1ccccc1 |  | <2.29 µg/mL
CCOCn1c(Sc2ccccc2)c(CC)c(=O)[nH]c1=O |  | 146 µM

Blank or dashed fields: not listed here. CCn is the concentration with n% toxicity to the cells.